A mixed list of measured activities; the numbers were collected in NIAID ChemDB.

Common to all: growth or infection tests; species: Mycobacterium tuberculosis

An empty or dashed field is not shown. ECn is the concentration giving n% inhibition of infection, replication or growth. MIC bound: limit read from a one-dose screen. Lines come from different laboratories, so protocols vary. A number after MIC or MFC names an inhibition level or a share of isolates. Percent inhibition refers to the dose given; in toxicity tests it is the harm to the cells.

SMILES	strain or isolate	dose	endpoint	changes	method	value
CSc1ccc2c(c1)N(CCCC1CCCCN1C)c1ccccc1S2	H37Rv-GFP		MIC	gfp	fluorescence	3 µg/mL
O=C(c1ccccc1)C1C(=O)N(c2ccccc2)C(=O)N1c1ccccc1	H37Rv		MIC bound		BACTEC	>12.5 µg/mL
CC[C@@H](CO)NCCN[C@@H](CC)CO	H37Rv		MIC99		broth dilution	1 µg/mL
CCCCCCOc1ccccc1NC(=O)OCC[NH+]1CCCC1	My 331/88		MIC			62.5 µM
C[C@H](O)[C@H]1C(=O)N2C(C(=O)O)=C(S[C@@H]3CN[C@H](C(=O)N(C)C)C3)[C@H](C)[C@H]12			MIC			0.83 µM
CN(CC1CCCCC1)C1CCN(c2nc(=O)c3cc(C(F)(F)F)cc([N+](=O)[O-])c3s2)CC1	H37Rv		MIC90		resazurin	0.051 µg/mL
COc1ccc2c(c1)CCC1=C2CCS1(=O)=O	H37Rv		MIC bound		resazurin	>6.25 µg/mL
NCC[C@H](O)C(=O)N[C@@H]1C[C@H](N)[C@@H](O[C@H]2O[C@H](CN)[C@@H](O)[C@H](O)[C@H]2O)[C@H](O)[C@H]1O[C@H]1O[C@H](CO)[C@@H](O)[C@H](N)[C@H]1O	H37Rv		MIC99		broth dilution	0.5 µg/mL
N#CC(Nc1cccc(F)c1)c1ccc(OCc2nc3ccccc3[nH]2)cc1	H37Rv	6.25 µg/mL	inhibition		resazurin	90%
O=C(NC(=S)NCc1cccs1)c1csc([N+](=O)[O-])c1			MIC		resazurin	20 µg/mL
O=S(=O)(O)CCCN1c2ccccc2Sc2ccc(Cl)cc21	H37Rv-GFP		MIC	gfp	fluorescence	25 µg/mL
CO[C@H]1/C=C/O[C@@]2(C)Oc3c(C)c(O)c4c(O)c(c5c(c4c3C2=O)NC2(CC3CCC(C2)N3)N=5)=NC(=O)/C(C)=C\C=C\[C@H](C)[C@H](O)[C@@H](C)[C@@H](O)[C@@H](C)[C@H](OC(C)=O)[C@@H]1C			MIC90		GFP	10 µg/mL
Cc1nn(C(=O)c2ccc(Cl)cc2)c2c1C(/C=C/c1ccccc1)SC(N)=N2	H37Rv	12.5 µg/mL	inhibition		BACTEC	8%
Cc1ccc2nc(SCc3cc([N+](=O)[O-])cc([N+](=O)[O-])c3)[nH]c2c1	MY 332/88		MIC			4 µM
CC(=O)NC[C@H]1CN(c2ccc(N3CCN(c4ccc([N+](=O)[O-])s4)CC3)c(F)c2)C(=O)O1	SGPGI		MIC			0.25 µg/mL
S=C(S)N1CCCC1	H37Rv		MIC bound		BACTEC	≤12.5 µg/mL
CCn1cc(C(=O)O)c(=O)c2cc(F)c(N3CCN(Cn4c(O)c(N=NC(=O)c5ccncc5)c5ccccc54)CC3)cc21	H37Rv		MIC		BACTEC	<6.25 µg/mL
COC(=O)CC1C(C)(C)C(=O)C2CC3=C4CC(=O)OC(c5ccoc5)C4(C)CCC3C1(C)C2=O	H37Rv		MIC bound		BACTEC	>12.5 µg/mL
Cc1ccc(NC(C#N)c2ccc(OCc3nc4ccccc4[nH]3)cc2)cc1	H37Rv	6.25 µg/mL	inhibition		resazurin	54%
Cc1ccccc1OC1C(=O)N(c2ccc(Cl)c(F)c2)C1c1ccc(OCC(=O)O)cc1	H37Rv	6.25 µg/mL	inhibition		resazurin	72%
C=C1C(=O)O[C@@H]2/C=C(/CO)CC/C=C(/CO)C[C@@H](OC(=O)C(C)C)[C@@H]12	H37Rv		MIC bound		BACTEC	>12.5 µg/mL
CCCCCCCCCC(=O)N[C@H]1[C@H](Oc2c3cc4cc2Oc2ccc(cc2Cl)[C@@H](O[C@@H]2O[C@H](CO)[C@@H](O)[C@H](O)[C@H]2NC(C)=O)[C@@H]2NC(=O)[C@H](NC(=O)[C@@H]4NC(=O)[C@H]4NC(=O)[C@@H](Cc5ccc(c(Cl)c5)O3)NC(=O)[C@H](N)c3ccc(O)c(c3)Oc3cc(O)cc4c3)c3ccc(O)c(c3)-c3c(O[C@H]4O[C@H](CO)[C@@H](O)[C@H](O)[C@@H]4O)cc(O)cc3[C@H](C(=O)O)NC2=O)O[C@H](CO)[C@@H](O)[C@@H]1O	L1914		MIC			64 µg/mL
CSc1ccc2c(c1)N(CCCS(=O)(=O)O)c1ccccc1S2	H37Rv-GFP		MIC	gfp	fluorescence	25 µg/mL
C[C@H]1COc2c(N3CCN(C)CC3)c(F)cc3c(=O)c(C(=O)O)cn1c23	3183-5		MIC			0.25 µg/mL
COC1(CO)C(=O)N(C)CC(=O)N1C	H37Rv		MIC			6.3 µg/mL
NNC(=O)c1ccncc1	H37Rv		MIC		resazurin	0.03 µM
CC(C)(C)c1cc(C(C)(C)C)c2oc(-c3cccs3)nc2c1	H37Rv	6.25 µg/mL	inhibition		BACTEC	<90%
CCn1cc(C(=O)O)c(=O)c2cc(F)c(N3CCN(CN4C(=O)C(=O)c5ccccc54)CC3)cc21	H37Rv	12.5 µg/mL	inhibition		BACTEC	95%
CCCc1cc(-c2nc(-c3ccncc3)cs2)ccn1	H37Rv		MIC80		turbidity	1.4 µg/mL
CC(C)(C)c1cc(C(C)(C)C)c2oc(-c3ccc(Cl)cc3)nc2c1	H37Rv	6.25 µg/mL	inhibition		BACTEC	<90%
CC1(C)N=c2cc3c(cc2N1c1ccc(Cl)cc1)=Nc1ccccc1N3c1ccc(Cl)cc1	H37Rv	12.5 µg/mL	inhibition		BACTEC	100%
CO/N=C1\CCCN(c2nc(=O)c3cc(C(F)(F)F)cc([N+](=O)[O-])c3s2)CC1	16802 clinical isolate		MIC90		resazurin	0.016 µg/mL
CC(C)N1CCN(c2cc3c(cc2F)c(=O)c(C(=O)O)cn3C2CC2)CC1			MIC50			0.125 µg/mL
CO[C@H]1/C=C/O[C@@]2(C)Oc3c(C)c(O)c4c(O)c(c5c(c4c3C2=O)NC2(N=5)C3CC4C[C@H]2CN(C4)C3)=NC(=O)/C(C)=C\C=C\[C@H](C)[C@H](O)[C@@H](C)[C@@H](O)[C@@H](C)[C@H](OC(C)=O)[C@@H]1C			MIC90		GFP	10 µg/mL
Cc1ccc2nc(SCc3cccc(F)c3)[nH]c2c1	MY 332/88		MIC			62 µM
CC(=O)NC1=C2C=CC=C3C(=O)N(C/C=C\Cn4cc(C)c(=O)[nH]c4=O)C(C=C1)C32	H37Rv		EC50		resazurin	19 µg/mL
CCON=C1CN(c2nc(=O)c3cc(C(F)(F)F)cc([N+](=O)[O-])c3s2)C1	16802 clinical isolate		MIC90		resazurin	0.016 µg/mL
C=C1C(=O)OC2C1C(OC(=O)/C(C)=C/C)CC1(CO1)C1C(O)C=C(C)C21O	H37Rv		MIC		BACTEC	≥12.8 µg/mL
CCn1cc(C(=O)O)c(=O)c2cc(F)c(N3CCN(Cn4c(O)c(N=NC(N)=O)c5ccccc54)CC3)cc21	H37Rv		MIC		BACTEC	>12.5 µg/mL
CON=C1CN(c2nc(=O)c3cc(C(F)(F)F)cc([N+](=O)[O-])c3s2)C1	16892 clinical isolate		MIC90		resazurin	0.016 µg/mL
Cc1ccc2nc(SCc3cc(C(F)(F)F)cc(C(F)(F)F)c3)[nH]c2c1	MY 332/88		MIC			62 µM
CN(C)CCCN1c2ccccc2Sc2ccc(Cl)cc21	H37Rv-GFP		MIC	gfp	fluorescence	6 µg/mL
Cc1cccc(OC2C(=O)N(c3ccc(Cl)c(F)c3)C2c2ccc(OCC(=O)O)cc2)c1	H37Rv	6.25 µg/mL	inhibition		resazurin	56%
Oc1cc(Br)ccc1/C=N/Nc1ccccn1	H37Rv		MIC bound		BACTEC	>12.5 µg/mL
CC(C)(C)c1cc(C(C)(C)C)c2oc(-c3ccn[nH]3)nc2c1	H37Rv	6.25 µg/mL	inhibition		BACTEC	72%
CCc1cc(Cc2cc(CC)c(NC(=O)C(=O)Cc3ccccn3)c(CC)c2Cl)c(Cl)c(CC)c1NC(=O)C(=O)Cc1ccccn1	H37Rv		MIC bound		BACTEC	>12.5 µg/mL
CC(C)(C)c1cc(C(C)(C)C)c2oc(/C=C/c3ccccc3)nc2c1	H37Rv		MIC		BACTEC	3.13 µg/mL
O=C(N=Nc1c(O)[nH]c2cc(Cl)ccc12)Nc1ccc(Br)cc1	H37Rv	6.25 µg/mL	inhibition			<20%
NNC(=O)c1ccncc1	H37Rv		MIC		resazurin	0.19 µM
CCOC(=O)c1cn(CC)c2c(cc([N+](=O)[O-])c3cccnc32)c1=O	H37Rv		MIC90	gyrA mutation G88C		>50 µM
C[C@H]1COC2(CCN(c3nc(=O)c4cc(C(F)(F)F)ccc4s3)CC2)O1	H37Rv		MIC		resazurin	>1 µM
CCCCN(CCCC)CCNc1ccc(Cl)c2oc3cc(C)ccc3c(=O)c12.Cl	H37Rv	12.5 µg/mL	inhibition		BACTEC	-10%
O=C(O)c1cn(C2CC2)c2cc(N3CCN(Cc4ccccc4)CC3)c(F)cc2c1=O			MIC90			2 µg/mL
CCCCCCCOc1cccc(NC(=O)OCC[NH+]2CCCC2)c1	My 331/88		MIC			32 µM
COC(=O)C1ON(C(=O)c2ccccc2)C(C)C(O)C1OC=O	H37Rv		MIC bound		BACTEC	>12.5 µg/mL
COc1ccc(NC(=O)OCC[NH+]2CCCC2)cc1	My 331/88		MIC			>1000 µM
NCC1CCC(COCC2CCC(CN)O2)O1	H37Rv	12.5 µg/mL	inhibition		BACTEC	0%
CCCCCCCCOc1ccc(NC(=O)OCC[NH+]2CCCC2)cc1	My 331/88		MIC			16 µM
CCOC(=O)/C(=C(\N)C1OC(COC(c2ccccc2)(c2ccccc2)c2ccccc2)C2OC(C)(C)OC12)C1CC(=O)N(C)C1=O	H37Rv		MIC bound		BACTEC	>12.5 µg/mL
N#CC(Nc1ccccc1Cl)c1ccc(OCc2nc3ccccc3[nH]2)cc1	H37Rv		MIC		resazurin	6.25 µg/mL
CO[C@H]1/C=C/O[C@@]2(C)Oc3c(C)c(O)c4c(O)c(c5c(c4c3C2=O)NC2(CC3CCC(C2)N3C)N=5)=NC(=O)/C(C)=C\C=C\[C@H](C)[C@H](O)[C@@H](C)[C@@H](O)[C@@H](C)[C@H](OC(C)=O)[C@@H]1C			MIC90		GFP	10 µg/mL
Cc1ccn2c(C(=O)OCc3ccccc3)c(C)nc2c1	XDR-TB		MIC90	Resistant to HREKO	broth dilution	<0.01 µg/mL
CC(C)(C)c1cc(C(C)(C)C)c2oc(-c3ccccc3Br)nc2c1	H37Rv		MIC		BACTEC	6.25 µg/mL
CN[C@@H]1[C@H](O[C@H]2[C@H](O[C@H]3[C@H](O)[C@@H](O)[C@H](N=C(N)N)[C@@H](O)[C@@H]3N=C(N)N)O[C@@H](C)[C@]2(O)C=O)O[C@@H](CO)[C@H](O)[C@H]1O			MIC		broth dilution / visual reading	40 µg/mL
CCCCCC1=CC(=O)C=C(OC)C12C(=O)Oc1cc(O)c(C(=O)O)c(CCCCC)c12	H37Rv		MIC		BACTEC	≥12.8 µg/mL
CC(C)(C)c1cc(C(C)(C)C)c2oc(-c3cccnc3)nc2c1	H37Rv	6.25 µg/mL	inhibition		BACTEC	<90%
N#CC(Nc1ccc(F)cc1)c1ccc(OCc2nc3ccccc3[nH]2)cc1	H37Rv	6.25 µg/mL	inhibition		resazurin	96%
CC1=NN(C(=O)c2ccncc2)C(=O)C1N=Nc1ccc2ccccc2c1	H37Rv		MIC bound		BACTEC	>12.8 µg/mL
O=c1nc(N2CCC(=NOCc3ccccc3)CC2)sc2c([N+](=O)[O-])cc(C(F)(F)F)cc12	16802 clinical isolate		MIC90		resazurin	0.016 µg/mL
Cc1ccc(OC2C(=O)N(c3ccc(Cl)c(F)c3)C2c2ccc(OCC(=O)O)cc2)cc1	H37Rv	6.25 µg/mL	inhibition		resazurin	85%
Cc1cc2nc3n(c2cc1C)C(C)(C)N=C(N)N3	H37Rv		MIC bound		resazurin	>6.25 µg/mL
CCn1cc(C(=O)O)c(=O)c2ccc(C)nc21	BCG		MIC90	gyrA mutation D94G		>50 µM
CC(C)=CCC/C(C)=C/COC(=O)C=CC(=O)NC(N)=O	H37Rv		MIC		BACTEC	12.5 µg/mL
O=C1N=C2SC([N+](=O)[O-])=CN2C2=NC(=S)NC(c3ccccc3O)C12	H37Rv		MIC		agar	68.8 µM
Cc1cc(Cc2cc(C)c(NC(=O)C(=O)C3C(=O)NC(=S)NC3=O)c(C(C)C)c2)cc(C(C)C)c1NC(=O)C(=O)C1C(=O)NC(=S)NC1=O	H37Rv		MIC bound		resazurin	>6.25 µg/mL
O=C(O)COc1ccc(C2C(Oc3ccccc3)C(=O)N2c2ccc(Cl)c(F)c2)cc1	H37Rv		MIC90		resazurin	>6.25 µg/mL

For reference, 7 entries again:

CC(C)(C)c1cc(C(C)(C)C)c2oc(-c3ccn[nH]3)nc2c1 ; strain or isolate: H37Rv ; dose: 6.25 µg/mL ; endpoint: inhibition ; method: BACTEC ; value: 72%
CO[C@H]1/C=C/O[C@@]2(C)Oc3c(C)c(O)c4c(O)c(c5c(c4c3C2=O)NC2(CC3CCC(C2)N3)N=5)=NC(=O)/C(C)=C\C=C\[C@H](C)[C@H](O)[C@@H](C)[C@@H](O)[C@@H](C)[C@H](OC(C)=O)[C@@H]1C ; endpoint: MIC90 ; method: GFP ; value: 10 µg/mL
CCCCCC1=CC(=O)C=C(OC)C12C(=O)Oc1cc(O)c(C(=O)O)c(CCCCC)c12 ; strain or isolate: H37Rv ; endpoint: MIC ; method: BACTEC ; value: ≥12.8 µg/mL
CCn1cc(C(=O)O)c(=O)c2cc(F)c(N3CCN(Cn4c(O)c(N=NC(=O)c5ccncc5)c5ccccc54)CC3)cc21 ; strain or isolate: H37Rv ; endpoint: MIC ; method: BACTEC ; value: <6.25 µg/mL
CSc1ccc2c(c1)N(CCCS(=O)(=O)O)c1ccccc1S2 ; strain or isolate: H37Rv-GFP ; endpoint: MIC ; changes: gfp ; method: fluorescence ; value: 25 µg/mL
CC1=NN(C(=O)c2ccncc2)C(=O)C1N=Nc1ccc2ccccc2c1 ; strain or isolate: H37Rv ; endpoint: MIC bound ; method: BACTEC ; value: >12.8 µg/mL
CC(C)N1CCN(c2cc3c(cc2F)c(=O)c(C(=O)O)cn3C2CC2)CC1 ; endpoint: MIC50 ; value: 0.125 µg/mL